Measurements reported in PubChem BioAssay AID624099 (ICCB-Longwood, 2012).
This is a random part of about 21,000 reagents. 497 of them (2.4%) were called active. 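Higher z means weaker E2 silencing; only reporter increases were scored, and knock-downs that hurt cell survival may mask genuine repressor factors.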 Reagents against one gene are numbered here. No sequences are given here.

Purpose: 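Host factors E2 relies on to silence an HPV18 LCR reporter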 (primary screen)
Cell system: human C33A cervical carcinoma cells (HPV-negative) stably expressing BPV1 E2 and an HPV18 LCR luciferase reporter
Knock-down reagent: siRNA pool against human genes, 40 nM
Duration: 72 h
Read-out: 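Per-well luciferase luminescence, z-scored on each plate against the plate mean and SD with control wells left out, then averaged across three replicate plates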
Reading the numbers: mean z-score and z-score: higher = stronger reporter signal, weaker E2 silencing
Call rule: 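Hit if mean z-score reaches 2 and two or more of three replicate z-scores also reach 2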

Target gene | pool no. | mean z-score | z-score, replicate A | z-score, replicate B | z-score, replicate C | activity call
CIPC | 1 | 1.65 | 1.29 | 1.7 | 1.97 | inactive
SETD7 | 1 | -0.45 | -0.42 | -0.74 | -0.18 | inactive
PAPPA | 1 | 1.02 | 0.62 | 1.07 | 1.38 | inactive
LINC00620 | 1 | -1.87 | -2.02 | -2.04 | -1.55 | inactive
SCNN1D | 1 | 0.38 | 0.28 | 0.49 | 0.38 | inactive
LYL1 | 1 | 0.62 | 0.32 | 0.58 | 0.97 | inactive
MDFIC | 1 | -0.66 | -0.7 | -0.89 | -0.4 | inactive
DLGAP5 | 1 | 0.76 | 0.69 | 0.81 | 0.79 | inactive
CD244 | 1 | 2.22 | 2.11 | 2.29 | 2.27 | active
LCN1 | 1 | -0.14 | -0.21 | -0.03 | -0.17 | inactive
PPP1R2 | 1 | 0.48 | 0.48 | 0.28 | 0.68 | inactive
AQP8 | 1 | -0.5 | -0.31 | -0.64 | -0.54 | inactive
ERCC6 | 1 | 1.38 | 1.43 | 1.44 | 1.27 | inactive
LOC400651 (retired record) | 1 | -0.4 | -0.26 | -0.47 | -0.47 | inactive
ZMYM4 | 1 | 0.9 | 1.11 | 0.76 | 0.82 | inactive
CSN1S1 | 1 | 1.16 | 1.33 | 1.07 | 1.09 | inactive
LRRC34 | 1 | 0.25 | 0.57 | -0.04 | 0.21 | inactive
RIPK1 | 1 | 0.28 | 0.23 | 0 | 0.61 | inactive
PMAIP1 | 1 | 0.88 | 0.76 | 1.22 | 0.65 | inactive
PPM1J | 1 | 0.04 | 0.01 | -0.04 | 0.16 | inactive
WFDC11 | 1 | -0.19 | 0.22 | -0.44 | -0.34 | inactive
H4C7 | 1 | 0.46 | 0.51 | 0.37 | 0.49 | inactive
TCP10L2 | 1 | -0.29 | -0.27 | -0.41 | -0.21 | inactive
HES1 | 1 | 1 | 1.31 | 0.9 | 0.78 | inactive
COPS8 | 1 | 0.53 | 0.3 | 0.36 | 0.92 | inactive
H2BC4 | 1 | -0.99 | -0.82 | -0.99 | -1.17 | inactive
TET3 | 1 | 1.29 | 1.25 | 1.49 | 1.12 | inactive
IER5L | 1 | -0.47 | -0.39 | -0.33 | -0.67 | inactive
INGX | 1 | -0.97 | -0.83 | -0.9 | -1.17 | inactive
CPOX | 1 | 0.61 | 0.43 | 0.67 | 0.73 | inactive
DDHD2 | 1 | 0.98 | 0.96 | 0.9 | 1.09 | inactive
VCAN | 1 | 0.28 | 0.07 | 0.48 | 0.3 | inactive
PLEKHG2 | 1 | 0.12 | 0 | 0.2 | 0.16 | inactive
POLR2G | 1 | -2.85 | -2.83 | -2.97 | -2.76 | inactive
FCGR3A | 1 | -0.51 | -0.49 | -0.56 | -0.5 | inactive
GPR153 | 1 | -0.35 | -0.35 | -0.19 | -0.51 | inactive
LTV1 | 1 | -0.38 | -0.27 | -0.48 | -0.41 | inactive
C5AR1 | 1 | 1.42 | 1.78 | 1.23 | 1.26 | inactive
LINC02789 | 1 | 0.47 | 0.66 | 0.67 | 0.08 | inactive
ZFAND5 | 1 | 0.68 | 0.77 | 0.6 | 0.66 | inactive
HBE1 | 1 | -0.73 | -0.79 | -0.58 | -0.81 | inactive
MYH7B | 1 | -0.24 | -0.01 | 0.29 | -0.99 | inactive
BPNT1 | 1 | 1.16 | 1.21 | 1.05 | 1.21 | inactive
WDR26 | 1 | -2.08 | -2.11 | -2.05 | -2.07 | inactive
ZNF578 | 1 | 0.58 | -0.03 | 0.62 | 1.14 | inactive
HTR1F | 1 | -0.24 | -0.15 | -0.26 | -0.33 | inactive
CFHR5 | 1 | -0.08 | 0.51 | -0.54 | -0.22 | inactive
SHCBP1L | 1 | -1.35 | -1.48 | -1.2 | -1.39 | inactive
STK10 | 1 | -1.25 | -0.76 | -1.64 | -1.36 | inactive
CGGBP1 | 1 | -0.75 | -1.27 | -0.47 | -0.51 | inactive
BPTF | 1 | -0.35 | 0.24 | -0.68 | -0.61 | inactive
CLIC6 | 1 | -0.75 | -0.47 | -0.75 | -1.02 | inactive
CARMIL3 | 1 | -1.05 | -1.45 | -0.83 | -0.89 | inactive
LINC02591 | 1 | -0.12 | 0.3 | -0.3 | -0.36 | inactive
LINC02591 | 2 | -0.86 | -0.94 | -0.57 | -1.06 | inactive
TTC16 | 1 | 1.56 | 1.86 | 1.64 | 1.19 | inactive
IGFL4 | 1 | -0.25 | -0.26 | -0.15 | -0.33 | inactive
IGFL4 | 2 | 0.31 | 1.16 | -0.16 | -0.06 | inactive

Part of the list above, reformatted:
| Target gene | pool no. | mean z-score | z-score, replicate A | z-score, replicate B | z-score, replicate C | activity call |
| --- | --- | --- | --- | --- | --- | --- |
| COPS8 | 1 | 0.53 | 0.3 | 0.36 | 0.92 | inactive |
| H2BC4 | 1 | -0.99 | -0.82 | -0.99 | -1.17 | inactive |
| TET3 | 1 | 1.29 | 1.25 | 1.49 | 1.12 | inactive |
| IER5L | 1 | -0.47 | -0.39 | -0.33 | -0.67 | inactive |
| INGX | 1 | -0.97 | -0.83 | -0.9 | -1.17 | inactive |
| CPOX | 1 | 0.61 | 0.43 | 0.67 | 0.73 | inactive |
